Anti-infective test results gathered from many reports (values: NIAID ChemDB through PubChem).

Common to all: tests in culture; agent: Cryptococcus neoformans; endpoint: MIC90

Rows are shuffled and stem from different studies. MIC50, MIC90 and the like: level of inhibition, or share of isolates inhibited. Blank or dashed fields: not listed here.

smiles	strain	value
CCC(C)CC(C)CCCCCCCCC(=O)N[C@H]1C[C@@H](O)[C@H](NCCN)NC(=O)[C@@H]2[C@@H](O)CCN2C(=O)[C@H]([C@H](O)CCN)NC(=O)[C@H]([C@H](O)[C@@H](O)c2ccc(O)cc2)NC(=O)[C@@H]2C[C@@H](O)CN2C(=O)[C@H]([C@@H](C)O)NC1=O	10 strains	>16 µg/mL
CCC(C)n1ncn(-c2ccc(N3CCN(c4ccc(OC[C@H]5CO[C@](Cn6cncn6)(c6ccc(Cl)cc6Cl)O5)cc4)CC3)cc2)c1=O	12 strains	1 µg/mL
C[C@@H](c1ncncc1F)[C@](O)(Cn1cncn1)c1ccc(F)cc1F		0.034 µg/mL
COc1cccc(N(C)C(=S)Oc2ccc3c(c2)CCCC3)n1	33 strains	1.25 µg/mL
CC(N1CCN(c2ccc(-n3cnn(Cc4ccc(C(F)(F)F)cc4)c3=O)cc2F)CC1)C(O)(Cn1cncn1)c1ccc(F)cc1F	8 strains	0.19 µg/mL
CC(C)C(CCC(C)C1CC[C@@]2(C)C3=C(CCC12C)C1(C)CC[C@H](O)C(C)(C)C1CC3)N=[N+]=[N-]	A.34144	25 µg/mL
CC(N1CCN(c2ccc(-n3cnn(Cc4ccc(OC(F)(F)F)cc4)c3=O)cc2)CC1)C(O)(Cn1cncn1)c1ccc(F)cc1F	8 strains	0.19 µg/mL
C=C1CO[C@H]2[C@@H](C)OC(OC[C@@]34C[C@H]5[C@H](C)CC[C@@H]5[C@@]5(C=O)C[C@@H]3C=C(C(C)C)[C@@]45C(=O)O)C[C@@H]12	16 strains (serotype D)	1 µg/mL
CC(C)C(CCC(C)C1CC[C@@]2(C)C3=C(CCC12C)C1(C)CC[C@H](O)C(C)(C)C1CC3)NCc1ccccc1	A.34144	3.13 µg/mL
Nc1[nH]c(=O)ncc1F	15 isolates	8 µg/mL
CC(C)C(N)CCC(C)C1CC[C@@]2(C)C3=C(CCC12C)C1(C)CC[C@H](O)C(C)(C)C1CC3	B42419	0.78 µg/mL
CCC(C)n1ncn(-c2ccc(N3CCN(c4ccc(OC[C@H]5CO[C@](Cn6cncn6)(c6ccc(Cl)cc6Cl)O5)cc4)CC3)cc2)c1=O	32 isolates	0.008 µg/mL
CCNC(CCC(C)C1CC[C@@]2(C)C3=C(CCC12C)C1(C)CC[C@H](O)C(C)(C)C1CC3)C(C)C	A.34144	25 µg/mL
C[C@H]1[C@H](O)[C@@H](C)/C=C/C=C/C=C/C=C/C=C/C=C/C=C/[C@H](O[C@@H]2O[C@H](C)[C@@H](O)[C@H](N)[C@@H]2O)C[C@@H]2O[C@](O)(C[C@@H](O)C[C@@H](O)CC[C@H](O)[C@@H](O)C[C@@H](O)CC(=O)O[C@H]1C)C[C@H](O)[C@H]2C(=O)O	37 strains	0.125 µg/mL
Nc1[nH]c(=O)ncc1F	42 isolates (HIV+)	4 µg/mL
CNC(CCC(C)C1CC[C@@]2(C)C3=C(CCC12C)C1(C)CC[C@H](O)C(C)(C)C1CC3)C(C)C	A.34144	0.78 µg/mL

Repeating the final 2 entries:

smiles	strain	value
Nc1[nH]c(=O)ncc1F	42 isolates (HIV+)	4 µg/mL
CNC(CCC(C)C1CC[C@@]2(C)C3=C(CCC12C)C1(C)CC[C@H](O)C(C)(C)C1CC3)C(C)C	A.34144	0.78 µg/mL